Measured values as given in the supplement of paper PMC10127200.
Only a part is listed here, and it is no random draw.

How the values were obtained:
Assay in all cases: Euclidean distance of Cell Painting phenotypic profile (signed KS, 77 features) to DMSO centroid (dimensionless distance); higher = stronger phenotypic change vs DMSO (phenoactivity)
Details in all cases: 48 h; 5 or 10 uM (library dependent)
786-O = tested on: 786-O
Outline: (§1)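 Library compounds were applied at 10 or 5 uM, depending on the library, with 0.1% DMSO final, for 48 h to five cancer lines and a healthy fibroblast line. After staining, cells were imaged confocally at 20X across 9 fields per well, and Harmony extracted 77 features, each scored as a signed Kolmogorov-Smirnov statistic against vehicle wells on the same plate. Phenoactivity is the Euclidean distance between each profile and the median vehicle profile, with profiles first plate-position corrected, correlation-weighted and averaged over replicates at the top dose.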

A549 = tested on: A549
Outline: as §1

DU145 = tested on: DU145
Outline: as §1

FB = tested on: FB
Outline: as §1

HEPG2 = tested on: HEPG2
Outline: as §1

OVCAR4 = tested on: OVCAR4
Outline: as §1

## O=P([O-])([O-])F.[Na+].[Na+] [Sodium Monofluorophosphate]
786-O
  Euclidean distance: 0.823
A549
  Euclidean distance: 0.753
DU145
  Euclidean distance: 0.818
FB
  Euclidean distance: 0.605
HEPG2
  Euclidean distance: 0.72
OVCAR4
  Euclidean distance: 0.871
